This note sets out measurements from publication PMC8136791, “In vivo targets of Salmonella FinO include a FinP-like small RNA controlling copy number of a cohabitating plasmid”.

For at least one entry, the source does not settle the construct or the ends of the probe. Weaker means in comparison with the reference protein, sequence or condition of that experiment. Where a protein sequence is shown, tags need not be part of it.

This data set concerns the target T1, FinO (UniProt A0A0H3P176).
T1 sequence (looked up, limits assumed): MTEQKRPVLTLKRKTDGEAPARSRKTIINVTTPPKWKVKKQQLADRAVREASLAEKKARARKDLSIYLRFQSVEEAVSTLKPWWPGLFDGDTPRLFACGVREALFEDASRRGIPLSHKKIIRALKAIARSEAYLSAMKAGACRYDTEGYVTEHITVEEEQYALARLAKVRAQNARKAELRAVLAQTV
Nature of the data set: competition with a labelled probe. Conditions: 25 mM Tris-HCl pH 7.4, 150 mM NaCl, 1 mM MgCl2, 1 ug yeast RNA/reaction, 4 nM labeled RNA, 37 C, 1 h (EMSA) or 30 min (filter binding), recombinant protein, letters put together from the description. On the technique in general: Mobility shift assays separate free from complexed probe on a gel.

Consider “GGGCAUUGAUUGCCUCCUUUGCAGGCAGUUGGUGGUUAGGCGCUGGCGGGGUCACUACCCCCGCCCUGCGCCGCUCU [RepX]”, for which the binding result (unlabeled RepX displaces FinP*, less effectively, 500 nM FinO) was “binds more weakly” and the binding result (unlabeled RepX unable to compete with FinP*, 5 uM FinO) was “binds more weakly”.
